Measured values from several laboratories, pooled; numbers as filed in NIAID ChemDB.

All rows: tests on isolated targets; species: Hepatitis C virus

a–b is a range or a potency band.

compound | protein | measure | dose | value
CNC(=O)c1c(-c2ccc(F)cc2)oc2cc(-c3ncn[nH]3)c(OC(C)C)cc12 | Nonstructural protein 5B | IC50 |  | ≤0.5 µM
COc1ccc(-c2ccc(Cl)cc2)c(-c2ccc3cc(-c4nc5cc(C(=O)O)ccc5n4C4CCCCC4)ccc3n2)c1 | NS5B polymerase | inhibition | 100 µM | 100%
O=C(O)c1cc2nc(-c3ccc(OCc4ccccc4)cc3)cc(-c3ccc(-c4ccccc4)cc3)n2n1 | RNA-dependent RNA polymerase | IC50 |  | 1–10 µM
O=C(O)c1ccc2nc(-c3ccc4nc(-c5ccccc5-c5ccc(Cl)cc5)ccc4c3)[nH]c2c1 | NS5B polymerase | inhibition | 33 µM | 67.33%
CCCOc1cc2c(C(=O)NC)c(-c3ccc(F)cc3)oc2cc1N(C)S(C)(=O)=O | Nonstructural protein 5B | IC50 |  | ≤0.5 µM
O=C(O)c1cc2nc(-c3ccc(Oc4ccccc4)cc3)cc(-c3ccc(OCc4ccccc4)cc3)n2n1 | RNA-dependent RNA polymerase | IC50 |  | >10 µM
O=C(/C=C/c1ccccc1)Nc1ccsc1-c1nc(C(=O)O)c(O)c(=O)[nH]1 | HCV polymerase | IC50 |  | <25 µM
O=C(O)c1ccc2c(c1)nc(-c1ccc3nc(-c4ccc(N5CCOCC5)cc4)ccc3c1)n2C1CCCCC1 | NS5B polymerase | inhibition | 33 µM | 96.25%
CNC(=O)c1c(-c2ccc(F)cc2)oc2cc(N(C)S(C)(=O)=O)c(OCc3nccn3Cc3ccccc3)cc12 | Nonstructural protein 5B | IC50 |  | ≤0.5 µM
CC(C)(C)COC(=O)Nc1ccsc1-c1nc(C(=O)O)c(O)c(=O)[nH]1 | HCV polymerase | IC50 |  | <25 µM
CCOC(=O)c1cnn2c(C(F)(F)F)cc(-c3ccc(OC)cc3)nc12 | RNA-dependent RNA polymerase | IC50 |  | >10 µM
O=C(O)c1ccc2c(c1)nc(-c1ccc3nc(-c4ccccc4-c4ccccc4)ccc3c1)n2C1CCCCC1 | NS5B polymerase | inhibition | 33 µM | 100.1%
O=C(O)c1cc2nc(-c3ccccc3)cc(-c3ccc(Oc4ccccc4)cc3)n2n1 | RNA-dependent RNA polymerase | IC50 |  | >10 µM
O=C(O)c1nc(-c2cccc(OCc3ccc(Cl)cc3)c2)[nH]c(=O)c1O | HCV polymerase | IC50 |  | <100 µM
NCCCC[C@H](NC(=O)c1cnn2c(C3CCCCC3)c(-c3ccc(F)cc3)cnc12)C(=O)O | RNA-dependent RNA polymerase | IC50 |  | <1 µM
CNC(=O)c1c(-c2ccc(F)cc2)oc2cc(NCC3CCCO3)c(OC(C)C)cc12 | Nonstructural protein 5B | IC50 |  | ≤0.5 µM
c1cc(OC2CCCCC2)cc(-c2cnc3c(-c4nn[nH]n4)cnn3c2C2CCCCC2)c1 | RNA-dependent RNA polymerase | IC50 |  | 1–10 µM
NC(C(=O)Nc1cscc1-c1nc(C(=O)O)c(O)c(=O)[nH]1)c1ccccc1 | HCV polymerase | IC50 |  | <25 µM
COc1cccc(O)c1-c1ccc2cc(-c3nc4cc(C(=O)O)ccc4n3C3CCCCC3)ccc2n1 | NS5B polymerase | inhibition | 33 µM | 105%
CC(C)(C)C(=O)OCOC(=O)c1nc(-c2sccc2NC(=O)c2ccccc2)[nH]c(=O)c1O | HCV polymerase | IC50 |  | <50 µM
COc1ccc(-c2ccc(Cl)cc2)c(-c2ccc3cc(-c4nc5cc(C(=O)O)cnc5n4C4CCCCC4)ccc3n2)c1 | NS5B polymerase | inhibition | 33 µM | 100%
N#Cc1cnn2c(-c3ccc(OCc4ccccc4)cc3)c(-c3ccccc3)cnc12 | RNA-dependent RNA polymerase | IC50 |  | >10 µM
O=C(O)c1nc(-c2ccccc2O)[nH]c(=O)c1O | HCV polymerase | IC50 |  | <100 µM
COc1ccc(-c2ccc(C(=O)N3CCCC3)cc2-c2ccc3cc(-c4nc5cc(C(=O)O)ccc5n4C4CCCCC4)ccc3n2)cc1OC | NS5B polymerase | inhibition | 33 µM | 101%
O=C(Nc1ccsc1-c1nc(C(=O)O)c(O)c(=O)[nH]1)c1cccc(Cl)c1 | HCV polymerase | IC50 |  | <25 µM
CN(CC(=O)O)C(=O)c1cc2nc(-c3ccc(Cl)cc3)cc(-c3ccc(Oc4ccccc4)cc3)n2n1 | RNA-dependent RNA polymerase | IC50 |  | 1–10 µM
O=C(O)c1ccc2c(c1)nc(-c1ccc3nc(-c4cc(C(=O)N5CCCC5)ccc4-c4ccc([N+](=O)[O-])cc4)ccc3c1)n2C1CCCCC1 | NS5B polymerase | inhibition | 100 µM | 101%

Repeating the final 3 entries:

compound,protein,measure,dose,value
O=C(Nc1ccsc1-c1nc(C(=O)O)c(O)c(=O)[nH]1)c1cccc(Cl)c1,HCV polymerase,IC50,,<25 µM
CN(CC(=O)O)C(=O)c1cc2nc(-c3ccc(Cl)cc3)cc(-c3ccc(Oc4ccccc4)cc3)n2n1,RNA-dependent RNA polymerase,IC50,,1–10 µM
O=C(O)c1ccc2c(c1)nc(-c1ccc3nc(-c4cc(C(=O)N5CCCC5)ccc4-c4ccc([N+](=O)[O-])cc4)ccc3c1)n2C1CCCCC1,NS5B polymerase,inhibition,100 µM,101%

ICn: concentration for n% inhibition. Lines come from different laboratories, so protocols vary. Percent inhibition refers to the dose given; in toxicity tests it is the harm to the cells. An empty or dashed field is not shown.